Experimental data: PubChem BioAssay AID1259414 (Drosophila RNAi Screening Center, 2018)

Purpose: 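Host factors increasing or decreasing Wolbachia levels in cultured fly cells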 (primary screen)
System: Drosophila JW18 cells infected with Wolbachia
Reagents: long dsRNA against Drosophila genes, 0.25 µg dsRNA per well of a 384-well plate
Time to read-out: 5 days
Treatment: cells persistently infected with Wolbachia before knock-down; no added drug
Measurement: 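Imaged fluorescence in situ signal for Wolbachia 23S rRNA per DAPI-counted host cell, given as a robust z-score within each plate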
Scale: Wolbachia per cell robust z: higher = more Wolbachia per host cell than the plate typical
Call rule: 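Active if absolute robust z reaches 1.5 in two or more of three replicates, leaving out multi- or no-target dsRNAs, genes unexpressed in JW18 and A1 wells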
The screen tested about 24,000 reagents; this is an unselected part of those that have a named target and a result. Of all reagents, about 1,210 (5%) were called active. 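Inactive calls also include excluded dsRNAs with several or no targets, genes unexpressed in JW18, and well A1, regardless of score.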 Reagents against one gene are numbered here. Reagent sequences are not shown.

Depletion of Sfp33A3 (Seminal fluid protein 33A3) came out at: Wolbachia per cell robust z, rep 1 = -1.03; Wolbachia per cell robust z, rep 2 = -0.326; Wolbachia per cell robust z, rep 3 = -0.25; inactive.
Against CG16756 the deposit lists Wolbachia per cell robust z, rep 1 = 0.696; Wolbachia per cell robust z, rep 2 = -0.85; Wolbachia per cell robust z, rep 3 = 1.08; inactive.
CG18577 scored Wolbachia per cell robust z, rep 1 = -0.0893; Wolbachia per cell robust z, rep 2 = -0.398; Wolbachia per cell robust z, rep 3 = 0.143; inactive.
Silencing of CG10505 came out at: Wolbachia per cell robust z, rep 1 = -0.675; Wolbachia per cell robust z, rep 2 = -0.481; Wolbachia per cell robust z, rep 3 = -1.85; inactive.
After knock-down of AstCC (Allatostatin double C) the results were Wolbachia per cell robust z, rep 1 = -0.367; Wolbachia per cell robust z, rep 2 = -1.65; Wolbachia per cell robust z, rep 3 = -0.0191; inactive.
With knock-down of CG34138, the screen gave Wolbachia per cell robust z, rep 1 = 0.242; Wolbachia per cell robust z, rep 2 = 0.392; Wolbachia per cell robust z, rep 3 = -0.14; inactive.
With knock-down of Abp1 (Actin binding protein 1) the results were Wolbachia per cell robust z, rep 1 = -1.05; Wolbachia per cell robust z, rep 2 = 1.4; Wolbachia per cell robust z, rep 3 = -0.309; inactive.
After knock-down of Prx3 (Peroxiredoxin 3) #1 the results were Wolbachia per cell robust z, rep 1 = 0.715; Wolbachia per cell robust z, rep 2 = 0.0852; Wolbachia per cell robust z, rep 3 = 0.6; inactive.
Silencing of Prx3 (Peroxiredoxin 3) #2 came out at: Wolbachia per cell robust z, rep 1 = -0.563; Wolbachia per cell robust z, rep 2 = -0.815; Wolbachia per cell robust z, rep 3 = -0.957; inactive.
Pur-alpha (Purine-rich binding protein-alpha) gave Wolbachia per cell robust z, rep 1 = -1.49; Wolbachia per cell robust z, rep 2 = 0.59; Wolbachia per cell robust z, rep 3 = -1.61; inactive.
Depletion of Drsl5 (Drosomycin-like 5) came out at: Wolbachia per cell robust z, rep 1 = 0.675; Wolbachia per cell robust z, rep 2 = -3.15; Wolbachia per cell robust z, rep 3 = -0.277; inactive.
Knock-down of CG4325 #1 gave: Wolbachia per cell robust z, rep 1 = -0.231; Wolbachia per cell robust z, rep 2 = 0.842; Wolbachia per cell robust z, rep 3 = 1.2; inactive.
For CG4325 #2, the entry reads Wolbachia per cell robust z, rep 1 = 0.496; Wolbachia per cell robust z, rep 2 = 0.228; Wolbachia per cell robust z, rep 3 = 1.58; inactive.
Against CG6834 #1, the entry reads Wolbachia per cell robust z, rep 1 = 0.593; Wolbachia per cell robust z, rep 2 = -0.879; Wolbachia per cell robust z, rep 3 = 0.588; inactive.
CG6834 #2 scored Wolbachia per cell robust z, rep 1 = 0.0635; Wolbachia per cell robust z, rep 2 = 0.291; Wolbachia per cell robust z, rep 3 = -0.587; inactive.
With knock-down of cv-2 (crossveinless 2) #1, the screen gave Wolbachia per cell robust z, rep 1 = -2.02; Wolbachia per cell robust z, rep 2 = -0.689; Wolbachia per cell robust z, rep 3 = 0.879; inactive.
cv-2 (crossveinless 2) #2 scored Wolbachia per cell robust z, rep 1 = -1.01; Wolbachia per cell robust z, rep 2 = 0.0372; Wolbachia per cell robust z, rep 3 = -0.675; inactive.

2 entries from above, sorted by “Wolbachia per cell robust z, rep 1”, ascending:
AstCC (Allatostatin double C) | Wolbachia per cell robust z, rep 1 = -0.367; Wolbachia per cell robust z, rep 2 = -1.65; Wolbachia per cell robust z, rep 3 = -0.0191; Call = inactive
CG34138 | Wolbachia per cell robust z, rep 1 = 0.242; Wolbachia per cell robust z, rep 2 = 0.392; Wolbachia per cell robust z, rep 3 = -0.14; Call = inactive
